Experimental data reported in the supplement of paper PMC3578754.
Fold change is the IC50 on the isolate divided by the IC50 on a reference virus; 1 = unchanged, higher = more resistant. Changes are given against the subtype B consensus. No active / inactive call. The values were gathered from many studies (numbered anew) with different assays, which the source does not name. Most viruses are clinical isolates; some are laboratory strains or clones with known resistance changes. Isolates with mixed residues are left out; stretches that were not sequenced show no change. Round top values that many isolates share are read here as limits; other very high values and 0.1 may be limits too. The protease changes I3V and N37S, insertions and deletions cannot be read from the source.

Legend:
Assay in all cases: fold change of IC50 against reference virus; higher = more resistant; Cell-culture drug susceptibility tests of virus bearing the protease of each isolate, gathered from many studies.
saquinavir = compound: CC(C)(C)NC(=O)[C@@H]1C[C@@H]2CCCC[C@@H]2CN1C[C@@H](O)[C@H](Cc1ccccc1)NC(=O)[C@H](CC(N)=O)NC(=O)c1ccc2ccccc2n1 [saquinavir]
ritonavir = compound: CC(C)c1nc(CN(C)C(=O)N[C@H](C(=O)N[C@@H](Cc2ccccc2)C[C@H](O)[C@H](Cc2ccccc2)NC(=O)OCc2cncs2)C(C)C)cs1 [ritonavir]
atazanavir = compound: COC(=O)N[C@H](C(=O)N[C@@H](Cc1ccccc1)[C@@H](O)CN(Cc1ccc(-c2ccccn2)cc1)NC(=O)[C@@H](NC(=O)OC)C(C)(C)C)C(C)(C)C [atazanavir]
nelfinavir = compound: Cc1c(O)cccc1C(=O)N[C@@H](CSc1ccccc1)[C@H](O)CN1C[C@H]2CCCC[C@H]2C[C@H]1C(=O)NC(C)(C)C [nelfinavir]
lopinavir = compound: Cc1cccc(C)c1OCC(=O)N[C@@H](Cc1ccccc1)[C@@H](O)C[C@H](Cc1ccccc1)NC(=O)[C@H](C(C)C)N1CCCNC1=O [lopinavir]
indinavir = compound: CC(C)(C)NC(=O)[C@@H]1CN(Cc2cccnc2)CCN1C[C@@H](O)C[C@@H](Cc1ccccc1)C(=O)N[C@H]1c2ccccc2C[C@H]1O [indinavir]

Test System | fold change of IC50 against reference virus (saquinavir) | fold change of IC50 against reference virus (ritonavir) | fold change of IC50 against reference virus (atazanavir) | fold change of IC50 against reference virus (nelfinavir) | fold change of IC50 against reference virus (lopinavir) | fold change of IC50 against reference virus (indinavir)
HIV-1 isolate 887 (protease changes: L10I I15V K20R M36I N37D R41K M46I I54V I62V I64V L76V V82A I93L, study 101) | 0.8 | 23 | 0.5 | 4.2 | 68 | 
HIV-1 isolate 1325 (protease changes: T12S I15V L19I M36I R41K K45N I50L L63P H69K L89M I93L, study 115) |  |  | 8.6 |  | 0.3 | 
HIV-1 isolate 1522 (protease changes: L10I T12Q L19I L24I K43T M46I I54V Q61R L63P A71V L76V V82A I93L, study 101) | 1.8 | 62 | 2.3 | 13 | 47 | 
HIV-1 isolate 1372 (protease changes: L10I I15V M36I N37D R41K M46I I54V I62V I64V V82A I93L, study 101) | 0.4 | 9.3 | 1 | 3.9 | 5 | 
HIV-1 isolate 931 (protease changes: W6R L10I G16A L33F G48V I54M L63P A71V V77I V82A I84V L90M I93L C95F, study 104) | 100 |  | 100 | 29 | 27 | 60
HIV-1 isolate 308 (protease changes: L10I K43T M46L G48V I54V L63P I72V V77I V82A L90M, study 104) | 100 |  | 100 | 63 | 70 | 77
HIV-1 isolate 1215 (protease changes: M46L G48V L63P T74S V77I V82A, study 104) | 37 |  | 42 | 12 | 4 | 18
HIV-1 isolate 850 (protease changes: L10I K20I E35D M36I R41K I54V L63P A71V G73S I84V L90M, study 104) | 75 |  | 100 | 100 | 50 | 100
HIV-1 isolate 296 (protease changes: R41K I54V L63P A71V V82A I93L, study 24) | 3 | 33 | 6 | 17 |  | 15
HIV-1 isolate 1235 (protease changes: D30N M46I I64V V77I, study 24) | 0.6 | 1 | 2 | 43 |  | 2
HIV-1 isolate 530 (protease changes: L10Y I50L L63P A71V N88S, study 43) | 2 | 0.1 | 93 | 5 |  | 2
HIV-1 isolate 248 (protease changes: K45R I50L L63P I64L V77I I93L, study 115) | 0.1 | 0.1 | 5.2 | 0.3 |  | 0.3
HIV-1 isolate 338 (protease changes: L10F I13V N37D L63P V77I N88S I93L, study 115) | 1.3 | 0.8 | 6 | 7.7 |  | 4.2
HIV-1 isolate 1389 (protease changes: V11I I15V G16A D30N K43R L63P H69K I93L, study 115) | 0.5 | 0.6 | 1.8 | 14 |  | 0.9
HIV-1 isolate 162 (protease changes: K45R I50L L63P A71V G73S V77I I93L, study 115) | 0.3 | 0.1 | 9.9 | 1 |  | 0.5
HIV-1 isolate 1624 (protease changes: L10F K20R D30N E35D M36V N37D L63P H69Y K70E A71V V77I I84V N88D, study 115) | 33 | 13 | 49 | 232 |  | 8.2
HIV-1 isolate 1506 (protease changes: L10F T12A I13V D30N L33I E35D M36I F53L I54L D60E I62V L63P I66V A71T I84V I85V N88D I93L, study 115) | 6.9 | 2.8 | 12 | 72 |  | 2.8
HIV-1 isolate 263 (protease changes: I13V D30N E35D M36I I62V L63P I64V A71T V75I, study 115) | 0.5 | 0.6 | 1.9 | 25 |  | 1.1

Test System | fold change of IC50 against reference virus (saquinavir) | fold change of IC50 against reference virus (ritonavir) | fold change of IC50 against reference virus (atazanavir) | fold change of IC50 against reference virus (nelfinavir) | fold change of IC50 against reference virus (lopinavir) | fold change of IC50 against reference virus (indinavir)
HIV-1 isolate 759 (protease changes: I13V E35D I62V L63P, study 115) | 0.8 | 0.8 | 0.8 | 1.3 |  | 0.8
HIV-1 isolate 1575 (protease changes: L10I I15V K20R E35D M36I R41K I54V L63P A71V I72V G73S V82T I85V L90M, study 104) | 100 |  | 100 | 82 | 30 | 90
HIV-1 isolate 500 (protease changes: G16E E35D I62V L63S K70R, study 115) | 0.3 | 0.6 | 0.5 | 0.5 |  | 0.4
HIV-1 isolate 820 (protease changes: I13V I15V D30N E35D M36I K45Q R57K L63P E65D I72T, study 115) | 0.8 | 1 | 1.4 | 4.6 |  | 0.9
HIV-1 isolate 1177 (protease changes: L10F I13V D30N L33I E35D M36I N37D L63P I64V H69Y A71V V77I N88D, study 115) | 2.4 | 1.3 | 4.1 | 83 |  | 2.4
HIV-1 isolate 305 (protease changes: L63P V77I I93L, study 115) | 0.5 | 0.7 | 0.6 | 1.1 |  | 0.8
HIV-1 isolate 1343 (protease changes: L10I I13V D30N E35D N37Y R41K M46I L63Q I64V I72V V77I I85V N88S, study 115) | 1 | 1.6 | 2.7 | 7.4 |  | 1.8
HIV-1 isolate 900 (protease changes: L10I I54V L63P A71V V77I V82A I93L, study 24) | 4 | 40 | 6 | 19 |  | 16
HIV-1 isolate 303 (protease changes: L10F K20I L63A A71V G73S I84V L90M, study 104) | 100 |  | 100 | 68 | 30 | 76
HIV-1 isolate 625 (protease changes: L10I I15V G17D M46I L63P G73S I84V L90M, study 104) | 37 |  | 59 | 34 | 15 | 50
HIV-1 isolate 535 (protease changes: D30N E35D M36I N37D L63P H69Q A71V N88D L90M I93L, study 115) | 5.6 | 4.3 | 4 | 91 |  | 3.4
HIV-1 isolate 368 (protease changes: L10V K20R V32I L33F E35D M36L N37D M46I I47V I54L L63P I64M C67E A71V I72V V82A L89V L90M I93L, study 15) | 11 | 400 | 53 |  | 198 | 26
HIV-1 isolate 1275 (protease changes: I15V K20R E35D M36I I54V I62V L63Q I64V V82A L90M, study 24) | 3 | 58 | 4 | 11 |  | 6
HIV-1 isolate 1025 (protease changes: T12S L19Q K20R M36I L63P I72M V77I, study 115) | 0.6 | 0.9 | 0.7 | 0.8 |  | 0.7
HIV-1 isolate 899 (protease changes: M46I V82F I84V L90M, study 43) | 8 | 71 | 7 | 22 |  | 29
HIV-1 isolate 515 (protease changes: L10I L63A I93L, study 115) | 0.7 | 0.6 | 0.7 | 0.8 |  | 0.7
HIV-1 isolate 23 (protease changes: L10F I13V K14R D30N L33I E35D M36I R41K I64V N88D, study 115) | 2.7 | 1.8 | 7.4 | 82 |  | 2.6
